Anti-infective test results gathered from many reports (values: NIAID ChemDB through PubChem).

Shared fields: target-level tests; species: HIV-1; target: Reverse transcriptase; read-out: fold resistance

Fold resistance has wild type as its base.

smiles,changes,read by,strain or isolate,result
Cc1cc(C2CC2)c2ccccc2c1-n1c(Br)nnc1SCC(=O)Nc1ccc(C(=O)O)cc1Cl,RT-Y188L,nucleotide incorporation / radiometric,,>2
CC(C)=CCOc1cc(NC(=S)c2ccoc2C)ccc1Cl,RT-M184V,,,1.31
Cc1cc(C)c2ccccc2c1-n1c(CF)nnc1SCC(=O)Nc1ccc(S(N)(=O)=O)cc1Cl,RT-Y188L,nucleotide incorporation / radiometric,,>2
COC(=O)NCCCCNc1nc(Cc2ccccc2)c(C)c(=O)[nH]1,RT-Y188L,,,>43.5
CCc1ccc(-n2c(Br)nnc2SCC(=O)Nc2ccc(C(=O)O)cc2Cl)c2ccccc12,RT-Y188L,nucleotide incorporation / radiometric,,>2
CCN1c2ncc(CCOc3ccc(-c4cc(C(=O)O)ccc4F)cc3C)cc2C(=O)N(C)c2cccnc21,RT-K103N Y181C,nucleotide incorporation / radiometric,IIIB,>1
Cc1cc(S(N)(=O)=O)ccc1NC(=O)COc1ccccc1C(=O)c1cc(Cl)cc(C#N)c1,RT-K103N,nucleotide incorporation / radiometric,NNRTI-resistant,0.6
CC(C)=CCOc1cc(NC(=S)c2ccsc2C)ccc1Cl,RT-V106A,,,2.5
CCN1c2ncc(CCOc3ccc(C(=O)O)c4c3CCN(C(=O)N(C)C)C4)cc2C(=O)N(C)c2cccnc21,RT-V106A,nucleotide incorporation / radiometric,,1–10
O=C(CSc1nnc(C(F)F)n1-c1ccc(C2CC2)c2ccccc12)Nc1ccc(C(=O)O)cc1Cl,RT-Y188L,nucleotide incorporation / radiometric,,>2
CCc1cc(C2CC2)ccc1-n1c(Br)nnc1SCC(=O)Nc1ccc(C(=O)O)cc1Cl,RT-Y181C,nucleotide incorporation / radiometric,,>1
CCc1cc(NCc2nc3c(C)ccc(C)c3o2)c(=O)[nH]c1C,RT-Y188C,nucleotide incorporation,,5.8
CCN1c2ncc(CCOc3ccc(CCC(=O)O)c4ccccc34)cc2C(=O)N(C)c2ccc(F)nc21,RT-V106A,nucleotide incorporation / radiometric,,>10
Cc1cc(S(N)(=O)=O)ccc1NC(=O)CSc1nnc(Br)n1-c1ccc2c3c(cccc13)CC2,RT-Y188L,nucleotide incorporation / radiometric,,>2
NCCCCNc1nc(Cc2ccccc2)cc(=O)[nH]1,RT-L100I,,,1.36
CCN1c2ncc(CCOc3ccc(CC(=O)NN)c4ccccc34)cc2C(=O)N(C)c2ccc(Cl)nc21,RT-V106A,nucleotide incorporation / radiometric,,1–10
Cc1ccc(-n2c(C)nnc2SCC(=O)Nc2ccc(S(N)(=O)=O)cc2Cl)c2c1CCCC2,RT-Y181C,nucleotide incorporation / radiometric,,>1
Cc1cc(C)cc(S(=O)(=O)c2c(C(N)=O)[nH]c3ccc(Cl)cc23)c1,RT-V106A,nucleotide incorporation / radiometric,,30
Cc1cc(S(=O)(=O)O)ccc1NC(=O)CSc1nnc(C(F)F)n1-c1ccc(C)c2c1CCCC2,RT-Y188L,nucleotide incorporation / radiometric,,>2
NC(=O)c1[nH]c2ccc(Cl)cc2c1S(=O)(=O)c1ccccc1,RT-V179D,nucleotide incorporation / radiometric,,35
O=c1cc(Cc2ccccc2)nc(NCCCCO)[nH]1,RT-Y188L,,,>2.44
CCN1c2ncc(CCOc3ccc(-c4ccccc4)cc3)cc2C(=O)N(C)c2cccnc21,RT-K103N Y181C,nucleotide incorporation / radiometric,IIIB,>1
CCN1c2ncc(CCOc3cccc4c3ccc[n+]4[O-])cc2C(=O)N(C)c2ccc(Cl)nc21,RT-K103N L100I,nucleotide incorporation / radiometric,,4.4
O=C(CSc1nnc(Br)n1-c1ccc(C2CC2)c2ccccc12)Nc1ccc(C(=O)N[C@@H](Cc2ccc(O)cc2)C(=O)O)cc1Cl,RT-Y188L,nucleotide incorporation / radiometric,,>1
Cc1ccc2c(C)cc(C)c(-n3c(SCC(=O)Nc4ccc(S(N)(=O)=O)cc4C)nnc3C(F)F)c2n1,RT-Y188L,nucleotide incorporation / radiometric,,>2
CCN1c2ncc(CCOc3ccc(S(=O)(=O)NCC(=O)O)cc3C)cc2C(=O)N(C)c2cccnc21,RT-K103N Y181C,nucleotide incorporation / radiometric,IIIB,1
Cc1cc(C)c2ccccc2c1-n1c(SCC(=O)Nc2ccc(S(N)(=O)=O)cc2Cl)nnc1C(F)F,RT-Y188L,nucleotide incorporation / radiometric,,>2
CCN1c2ncc(CCOc3ccc(/C=C(\C)C(=O)O)c4ccccc34)cc2C(=O)Nc2c(C)cc(Cl)nc21,RT-Y188L,nucleotide incorporation / radiometric,,>10
CCc1ccc(-n2c(SCC(=O)Nc3ccc(C(=O)O)cc3C)nnc2C(F)F)c2ccccc12,RT-Y188L,nucleotide incorporation / radiometric,,>2
CCc1ccc(-n2c(Br)nnc2SCC(=O)Nc2ccc(C(=O)NCC(OC)OC)cc2Cl)c2ccccc12,RT-Y188L,nucleotide incorporation / radiometric,,>2
CC(C)=CCN1Cc2cccc3[nH]c(=S)n(c23)C[C@@H]1C,RT-Y181I,nucleotide incorporation,,125
CCOC(=O)CCNC(=O)c1ccc(NC(=O)CSc2nnc(Br)n2-c2ccc(CC)c3ccccc23)c(Cl)c1,RT-Y188L,nucleotide incorporation / radiometric,,>1
Cc1cc(C2CC2)cc(Cl)c1-n1c(Br)nnc1SCC(=O)Nc1ccc(C(=O)O)cc1Cl,RT-Y188L,nucleotide incorporation / radiometric,,>2
CCN1c2ncc(CCOc3ccc(C(=O)NNCC(=O)O)cc3C)cc2C(=O)N(C)c2cccnc21,RT-K103N Y181C,nucleotide incorporation / radiometric,IIIB,>2
Cc1cc(C)c(-n2c(SCC(=O)Nc3ccc(S(N)(=O)=O)cc3Cl)nnc2C(F)(F)F)c2c1CCCC2,RT-Y181C,nucleotide incorporation / radiometric,,>2
CCN1c2ncc(CCOc3ccc(-c4ccc(O)cc4)cc3C)cc2C(=O)N(C)c2cccnc21,RT-K103N Y181C,nucleotide incorporation / radiometric,IIIB,1
COc1ccc2c(C3CC3)ccc(-n3c(Br)nnc3SCC(=O)Nc3ccc(S(=O)(=O)O)cc3Cl)c2c1,RT-Y188L,nucleotide incorporation / radiometric,,>1

The first 2 rows once more:

Cc1cc(C2CC2)c2ccccc2c1-n1c(Br)nnc1SCC(=O)Nc1ccc(C(=O)O)cc1Cl ; changes: RT-Y188L ; read by: nucleotide incorporation / radiometric ; result: >2
CC(C)=CCOc1cc(NC(=S)c2ccoc2C)ccc1Cl ; changes: RT-M184V ; result: 1.31

a–b is a range or a potency band. An empty or dashed field is not shown. Neighbouring rows are from separate reports.